{"source": "paper PMC10675732", "about": "(Viruses, 2023)", "test_system": "A/PR/8/34 (H1N1)", "type": "in vivo, influenza A virus", "note": "Entries after “also recorded” stand apart in the source; their conditions may differ. Like-named read-outs stand apart in the source and are kept apart here."}
{"smiles": "O=C1c2c(O)c(=O)ccn2N([C@@H]2c3ccccc3SCc3c2ccc(F)c3F)[C@@H]2COCCN12", "note": "[baloxavir acid]", "values": [{"measurement": "HI Titer ± SD, Calculated", "setting": "1.6 mg/kg, 96 h before infection, 28 days post-infection", "result": "368 ± 152"}, {"measurement": "HI Titer ± SD, Calculated", "setting": "3.2 mg/kg, 72 h before infection, 30 days post-infection", "result": "320 ± 277"}, {"measurement": "Antibody response", "setting": "10 mg/kg, 24 h before infection", "result": "few antibody responses were observed; also recorded: no increase in antibody titre was observed"}, {"measurement": "HI Titer ± SD, Calculated", "setting": "10 mg/kg, 24 h before infection, 21 days post-infection", "result": 20}]}
